In this series the target is NCp7 (nucleocapsid protein, Zn2.NCp7(1-55)) (HIV-1) (UniProt P35962). Particulars: Trp37 fluorescence quenching, 0.2 M NaCl; average of 11 determinations.

The text below walks through data of patent publication US20060216692, “Switchable nucleic acids for diagnostics, screening and molecular electronics” (published 2006).

Substance SL3 20mer gave a Kd of 28 nM.

Usually Kd stands for the concentration at which binding is half-saturated.
